PubChem BioAssay AID504761 – Drosophila RNAi Screening Center | 2011

Screen: 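Insect host genes that dengue virus relies on to spread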 (primary screen)
Cells: D.Mel-2 cells from Drosophila
Reagents: long dsRNA against Drosophila genes
Treatment: infection with dengue virus type 2; dose and infection time not stated
Detection: 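Cells stained for dengue envelope protein and imaged; percent of infected cells per well on duplicate plates, ranked by infection, with stained nuclei counted for cell number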
Direction: infection score: higher = more virus-infected cells; cell count: higher = more cells in the well
Active means: 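Low infection ranks in the two replicates (chance level up to 0.065) followed by a retest with a 1.5-fold or larger significant decrease, p below 0.05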
Calls: active = confirmed: knock-down lowers infection; inactive = not picked or not confirmed
The screen tested about 22,000 reagents; shown is an unselected part of those with a known target gene and a result. In the full data, 116 (0.52%) were called active. 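Calls depend on retest data that are not deposited; infection was ranked per plate without normalising between plates; the unit of the infection score is not given.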 The raw values are shown without normalisation. A number with no mark means an inactive call. The numbers tell different reagents against one gene apart. A plus sign joins genes that one reagent is predicted to hit. The record does not give: the amount of reagent, the time to read-out.

| gene | reagent | infection score, replicate 1 | infection score, replicate 2 | cell count, replicate 1 | cell count, replicate 2 |
| --- | --- | --- | --- | --- | --- |
| hpRNA:CR32205 | 1 | 4.59 | 3.59 | 6401 | 6466 |
| Brca2 | 1 | 2.28 | 3.68 | 7003 | 6824 |
| Brca2 | 2 | 6.33 | 4.84 | 6630 | 6548 |
| GstD11 | 1 | 9.53 | 16.4 | 6558 | 6079 |
| GstD11 | 2 | 7.94 | 1.57 | 6338 | 5853 |
| lost | 1 | 0.37 | 0.66 | 5652 | 6346 |
| lost | 2 | 4.53 | 9.83 | 6427 | 6025 |
| lost | 3 | 12.6 | 2.54 | 4331 | 7135 |
| CG9578 | 1 | 1.67 | 0.65 | 6867 | 6573 |
| CG9578 | 2 | 25.3 | 7.12 | 5194 | 3523 |
| CG42245 + MEP-1 | 1 | – | 1.98 | – | 6025 |
| CG42245 + MEP-1 | 2 | 3.7 | 10.8 | 6544 | 6726 |
| CG42245 + MEP-1 | 3 | 4.75 | 6.85 | 4820 | 4234 |
| CG42245 + MEP-1 | 4 | 3.95 | 6.73 | 885 | 5035 |
| Df31 | 1 | 2.11 | 6.37 | 6016 | 6545 |
| Df31 | 2 | 9.15 | 10.9 | 5736 | 5697 |
| Kyat | 1 | 2.57 | 18.5 | 6389 | 5692 |
| CG11041 | 1 | 1.32 | 5.15 | 5966 | 5670 |
| CG11041 | 2 | 18.7 | 10.8 | 5849 | 5696 |
| CG32087 | 1 | 1.92 | 3.74 | 6414 | 6362 |
| CG32087 | 2 | 4.12 | 4.89 | 2014 | 6767 |
| CG13722 | 1 | 3.84 | 4.88 | 6093 | 5323 |
| CG13722 | 2 | 0.54 | 3.02 | 5919 | 5961 |
| CG13722 | 3 | 7.41 | 5.49 | 5357 | 4610 |
| arr | 1 | – | 1.13 | 409 | 617 |
| arr | 2 | 1.95 | 2.25 | 6761 | 6579 |
| CG11007 | 1 | 7.72 | 15.3 | 5489 | 5179 |
| wrd | 1 | 5.66 | 4.52 | 6832 | 5664 |
| wrd | 2 | 0.9 | 4.09 | 6113 | 6795 |
| wrd | 3 | 1.74 | 3.26 | 6374 | 6495 |
| Cdlc2 | 1 | 0.84 | 5.18 | 6563 | 6385 |
| Cdlc2 | 2 | 5.09 | 5.69 | 6666 | 5990 |
| M7BP | 1 | 15.3 | 25.6 | 5837 | 4931 |
| ckd | 1 | 1.52 | 4.63 | 6429 | 6441 |
| e(y)2 | 1 | 12.2 | 24.8 | 6004 | 5553 |
| Arpc2 | 1 | 4.73 | 1.72 | 6535 | 6630 |
| CG8679 | 1 | 2.82 | 0.88 | 886 | 799 |
| CG13067 | 1 | 1.73 | 3.07 | 6407 | 5728 |
| Prp39 | 1 | 2.72 | 5.56 | 5261 | 5500 |
| Prp39 | 2 | 2.33 | 6.13 | 5881 | 5580 |
| CG3199 | 1 | 1.12 | 3.46 | 6244 | 6612 |
| CG3199 | 2 | 3.28 | 8.42 | 5756 | 4884 |
| Arglu1 | 1 | 2.26 | 3.07 | 7114 | 6837 |
| Arglu1 | 2 | 14.5 | 20.7 | 5752 | 5359 |
| kl-3 (retired record) | 1 | 1.44 | 0.47 | 6095 | 5900 |
| kl-3 (retired record) | 2 | 1.45 | 0.36 | 6333 | 6099 |
| kl-3 (retired record) | 3 | 1.14 | 6.74 | 6483 | 5892 |
| CG16853 | 1 | 2.9 | 3.71 | 6926 | 7276 |
| CG5808 | 1 | 6.93 | 10.1 | 5298 | 4995 |
| CG31013 | 1 | 14.8 | 2.17 | 4075 | 646 |
| Dcr-2 | 1 | 21.4 | 21.1 | 4192 | 6762 |
| Dcr-2 | 2 | 19.8 | 15.3 | 2910 | 4916 |
| CG7884 | 1 | 2.22 | 0.34 | 5722 | 6114 |
| CG7884 | 2 | 11 | 1.59 | 6524 | 6603 |
| elfless | 1 | 16.3 | 4.05 | 5366 | 6519 |
| nAChRalpha1 | 1 | 1.44 | 0.77 | 5558 | 5312 |
| nAChRalpha1 | 2 | 3.29 | 2.48 | 3434 | 3831 |
| nAChRalpha1 | 3 | 1.34 (active) | 0.37 | 6585 | 5874 |
| nAChRalpha1 | 4 | 2.83 | 5.54 | 6395 | 6013 |

5 entries from above in another layout.
{"gene":"lost","reagent":1,"infection score, replicate 1":0.37,"infection score, replicate 2":0.66,"cell count, replicate 1":5652,"cell count, replicate 2":6346}
{"gene":"lost","reagent":2,"infection score, replicate 1":4.53,"infection score, replicate 2":9.83,"cell count, replicate 1":6427,"cell count, replicate 2":6025}
{"gene":"lost","reagent":3,"infection score, replicate 1":12.6,"infection score, replicate 2":2.54,"cell count, replicate 1":4331,"cell count, replicate 2":7135}
{"gene":"CG9578","reagent":1,"infection score, replicate 1":1.67,"infection score, replicate 2":0.65,"cell count, replicate 1":6867,"cell count, replicate 2":6573}
{"gene":"CG9578","reagent":2,"infection score, replicate 1":25.3,"infection score, replicate 2":7.12,"cell count, replicate 1":5194,"cell count, replicate 2":3523}
